Only a part is listed here, and it is no random draw. Activity calls are given as the source filed them. Calls come from the whole dose curve; as a rule, active = well fitted falling curve with a large enough effect; inconclusive = small, poorly fitted or top-dose-only effect; inactive = no such curve, though single readings can be large or run the other way.
assay: qHTS Assay for Inhibitors of the HIV-1 protein Vpr; note: nearly all actives have a fitted effect of over 50% in size; details: S. pombe RE007 Vpr strain, BacTiter-Glo ATP luminescence, 24 h; at 92.2 µM (top of the series) unless noted
% is set by controls: 0 for no effect and ±100 for the full control effect.

SMILES	activity change, negative = less growth
CN1CCCCC1COC(=O)C1(O)c2ccccc2CCc2ccccc21 (centres undefined)	inactive: -19.5%
COc1ccccc1OP(C)(=O)Nc1c(C)cccc1C (centres undefined)	inactive: 3.4%
O=P1(Nc2ncccn2)COc2ccccc2OC1	inactive: -5.05%
CCCC1OP(=O)(Nc2ccccc2)OCC1CC (centres undefined)	inactive: 1.64%
O=C(/C=C/c1ccccc1)OC1CN2CCC1CC2 (centres undefined)	inactive: -3.09%
CC1=C2N=C(C=C3N=C(C(C)=C4[N-][C@@](C)([C@@H]5N=C1[C@](C)(CCC(=O)NC[C@@H](C)OP(=O)([O-])O[C@H]1[C@@H](O)[C@@H](n6cnc7cc(C)c(C)cc76)O[C@@H]1CO)[C@H]5CC(N)=O)[C@@](C)(CC(N)=O)[C@@H]4CCC(N)=O)[C@@](C)(CC(N)=O)[C@@H]3CCC(N)=O)C(C)(C)[C@@H]2CCC(N)=O.[C-]#N.[Co+3]	inactive: -15.9%
CN(C)C1(CNC(=O)c2ccc(S(C)(=O)=O)cc2)CCCCC1	inactive: -4.41%
O=[N+]([O-])c1cc([N+](=O)[O-])c(Nc2nnnn2CCO)c([N+](=O)[O-])c1	inactive: -3.85%
COc1cc(C2NCCC3(OCCO3)C2(C)C)cc(OC)c1OC.O=[N+]([O-])c1cc([N+](=O)[O-])c(O)c([N+](=O)[O-])c1 (centres undefined)	inactive: -15.9%
Cc1ccc(C(=O)OC2CN3CCC2CC3)cc1 (centres undefined)	inactive: -4.23%
CC1CCC(C(C)C)C(OP(=O)(Nc2ccccn2)c2ccccc2)C1 (centres undefined)	inactive: 15.6%
Cc1nn(-c2ccccc2)c2c1P(=O)(N1CCOCC1)N(C)C(c1ccccc1)=N2 (centres undefined)	inactive: 12.6%
CC1(CBr)Cn2c(nc3ccccc3c2=O)S1 (centres undefined)	inactive: 20.9%
Cc1ccc(S(=O)(=O)N(CCCN)CCCc2c(C)nc(N)[nH]c2=O)cc1.O=[N+]([O-])c1cc([N+](=O)[O-])c(O)c([N+](=O)[O-])c1	inactive: 23% [at 18.4 µM]
CC(C)/C=N\N=C(\N)N[N+](=O)[O-]	inactive: -5.39%
COc1ccccc1CNC(=O)COC(=O)C(O)(c1ccccc1)c1ccccc1	inactive: 2.24%
O=[N+]([O-])c1cc([N+](=O)[O-])c(-c2cnn(-c3ccccc3)c2)c([N+](=O)[O-])c1	inactive: -12.5%
CC(C)(C)C(=O)NC(Sc1ncccn1)C(Cl)(Cl)Cl (centres undefined)	inactive: -5.94%
Clc1n[nH]nc1-c1nn[nH][15n]1	inactive: -13.3% [at 3.69 µM]
O=P1(N(CCCl)CCCl)NCCC(C(F)(F)F)O1 (centres undefined)	inactive: -16.8%
CN(Cc1cccnc1)C(=O)COc1ccc(Cl)c(Cl)c1.O=[N+]([O-])c1cc([N+](=O)[O-])c(O)c([N+](=O)[O-])c1	inactive: 9.42%
CN(CCCl)Cc1cc(Cl)c(NC2=NCCN2)c(Cl)c1	inactive: 2.89% [at 18.4 µM]
O=[N+]([O-])c1cc([N+](=O)[O-])c(-n2nnc3ccccc32)c([N+](=O)[O-])c1	inactive: 31.2%
Nc1ccc(CCCCOc2ccccc2)cc1.O=[N+]([O-])c1cc([N+](=O)[O-])c(O)c([N+](=O)[O-])c1	inactive: -11.8% [at 18.4 µM]
CCOP(=O)(NC(=NC(C)c1ccccc1)NC(C)c1ccccc1)OCC (centres undefined)	inactive: 13.4%
CCC1=CC2Cc3nc4ccc(Cl)cc4c(N)c3C(C1)C2 (centres undefined)	inactive: 8.24%
O=P1(Nc2ccccn2)COc2ccccc2OC1	inactive: -0.563%

SMILES	activity change, negative = less growth
O=C(O)C(O)c1ccc(N(CCCl)CCCl)cc1.c1ccncc1 (centres undefined)	inactive: 6.19%
CCOP(=O)(Nc1cccc2ccccc12)OCC	inactive: -24.8%
Cc1ccc(C)c(NP(C)(=O)Oc2ccccc2)c1 (centres undefined)	inactive: 2.39%
CCCOP(=S)(Nc1nc(N)cc(=O)[nH]1)OCCC	inactive: -3.91%
Cc1cc(C)cc(OP(C)(=O)Nc2ccccn2)c1 (centres undefined)	inactive: -9.27%
CP(=O)(Nc1cccc(Br)c1)Oc1ccccc1 (centres undefined)	inactive: -4.88%
CCOC(=O)c1ccc(NP(C)(=O)Oc2cc(C)cc(C)c2)cc1 (centres undefined)	inactive: 16.5%
Cc1cc(C)cc(OP(C)(=O)Nc2ccc(C)cc2C)c1 (centres undefined)	inactive: -8.33%
Cc1cccc(OCC(=O)OC2CN3CCC2CC3)c1 (centres undefined)	inactive: 17.2%
O=[As](O)(c1cccc(O)c1)c1cccc(O)c1	inactive: 6.48%
COc1ccccc1OP(C)(=O)Nc1cccc(Br)c1 (centres undefined)	inactive: -1.43%
CS(=O)(=O)c1ccc(Cl)c(NC(=O)COC(=O)C(O)(c2ccccc2)c2ccccc2)c1	inactive: -10.4%
O=[As](O)(O)c1cccnc1	inactive: 6.56%
COc1cc(C(=O)NCC2(N3CCOCC3)CCCCC2)cc(Cl)c1OC(C)C	inactive: -14.2%
O=C(OC1CN2CCC1CC2)c1ccc(Cl)cc1 (centres undefined)	inactive: 9.64%
CN(C(=O)Cc1ccc(Cl)c(Cl)c1)[C@H]1CC[C@@]2(CCCO2)C[C@@H]1N1CCCC1	inactive: 1.44% [at 18.4 µM]
O=[N+]([O-])c1ccc2c(c1)nnn2O	inactive: -1.82%
CN(C(=O)Cc1ccccc1)[C@@H]1CC[C@]2(CCCO2)C[C@H]1N1CCCC1	inactive: 10.7% [at 18.4 µM]
CCOP1(=S)c2c(C)nn(CCC#N)c2N=C(c2ccc(F)cc2)N1C (centres undefined)	inactive: -4.87%
N#CCCN(C(=O)COC(=O)C(O)(c1ccccc1)c1ccccc1)c1ccc(F)cc1	inactive: 0.678%
NC(=O)Nc1ccc([As](=O)(O)O)cc1	inactive: -11.5%
O=C(O)COc1ccc([As](=O)(O)O)cc1[N+](=O)[O-]	inactive: 15.5%
Nc1ccccc1[As](=O)(O)c1ccccc1	inactive: -18.3%
CS(=O)(=O)c1cc([N+](=O)[O-])c2no[n+]([O-])c2c1	inactive: -9.54%
O=P(Nc1nccs1)(Oc1ccccc1)Oc1ccccc1	inactive: 25.7%
CCOP1(=S)c2c(C)nn(CCC#N)c2N=C(c2ccccc2F)N1C (centres undefined)	inactive: -0.73%
COc1ccc(OP(C)(=O)Nc2cccc(F)c2)cc1 (centres undefined)	inactive: -0.509%

Source: PubChem BioAssay AID651644 (National Center for Advancing Translational Sciences (NCATS), 2012)
